# Measured values: paper PMC5686162, “Non-canonical activation of OmpR drives acid and osmotic stress responses in single bacterial cells” (Nature Communications, 2017)
# The exact form of at least one protein or probe is not confirmed. For some of these results: The comparison behind a weaker result is the experiment's own reference, which may not be listed here. Protein sequences can lack the tags named with them.
# Legend:
# OmpR = biological target: T1, OmpR (UniProt P0AA19); experiment: AFM; settings: AFM: OmpR exchanged into 20 mM Tris, 200 mM NaCl at pH 6.1, 6.5, 6.8 or 7.2, recombinant protein, protein details: His (pET15b), probe letters rebuilt from the primers and the genome
# T1 sequence (looked up, limits assumed): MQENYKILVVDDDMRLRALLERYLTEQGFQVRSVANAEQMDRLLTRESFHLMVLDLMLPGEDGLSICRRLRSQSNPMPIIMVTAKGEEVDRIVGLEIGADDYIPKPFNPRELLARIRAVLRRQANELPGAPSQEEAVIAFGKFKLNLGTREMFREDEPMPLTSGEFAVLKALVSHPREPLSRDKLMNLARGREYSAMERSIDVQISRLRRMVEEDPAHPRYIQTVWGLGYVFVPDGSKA
# OmpR~P = biological target: T2, OmpR~P (UniProt P0AA19); experiment: AFM; settings: acetyl phosphate, level between OmpR at pH 6.8 and 6.1; AFM: OmpR exchanged into 20 mM Tris, 200 mM NaCl at pH 6.1, 6.5, 6.8 or 7.2; recombinant protein; protein details: His (pET15b); probe letters rebuilt from the primers and the genome
# T2 sequence (looked up, limits assumed): T1 sequence (looked up, limits assumed)
Sequence,"binding result (OmpR; pH 6.5, stimulated by acid pH)","binding result (OmpR; pH 6.1, more binding than pH 6.8)","binding result (OmpR; pH 6.8, discrete specific foci)",binding result (OmpR~P)
AATAGATGTACAAGCGCCATTTTGCTGTACAAATAACCTACAAAAAGCCCAACAAAAATAATTGCAAATAAACAAAGATTGCTGGAAATTATGCGGATGTTAATTATTTGTGAAATAGTTAACAAGCGTTATAGTTTTTCTGTGGTAGCACAGAATAATGAAAAGTGTGTAAAGAAGGGTAAAAAAAACCGAATGCGAGGCATCCGGTTGAAATAGGGGTAAACAGACATTCAGAAATGAATGACGGTAATAAATAAAGTTAATGATGATAGCGGGAGTTATTCTAGTTGCGAGTGAAGGTTTTGTTTTGACATTCAGTGCTGTCAAATACTTAAGAATAAGTTATTGATTTTAACCTTGAATTATTATTGCTTGATGTTAGGTGCTTATTTCGCCATTCCGCAATAATCTTAAAAAGTTCCCTTGCATTTACATTTTGAAACATCTATAGCGATAAATGAAACATCTTAAAAGTTTTAGTATCATATTCGTGTTGGATTATTCTGCATTTTTGGGGAGAATGGACTTGCCGACTGATTAATGAGGGTTAATCAGTATGCAGTGGCATAAAAAAGCAAATAAAGGCATATAACAGAGGGTTAATAACATGAAAGTTAAAGTACTGTCCCTCCTGGTCCCAGCTCTGCTGGTAGCAGGCGCAGCAAACGCTGCTGAAGTTTACAACAAAGACGGCAACAAA (double strand) [ompC promoter E. coli],binds,–,–,–
TTTGTTGCCGTCTTTATTATAAATTTCAGCCGCATTCGCTGCGCCCGCCACCAGCAGAGCTGGTACCAGGAGGGACAGTACTTTAACTTTCATGTTATTAACCCTCTGTTATATGCCTTTATTGCTTTTTTATGCCACTGCTTACTGGTTAACCCTCATTAACCAGTCGGCAAGTCCATTCTCCGCAAAAATACAGAATAATCCAACACGAATATGATACTAAAACTTTTAAGATGTTACAGTTATCTACATAGATGTTTCAAAATATGAATTTTACGGAACTTTTTTAAAGCAAAAATCAAGTAAAAATAAGCACAAATAGACAAAATATATTCACGAAACTTTTAAAATCAACGGGTTAAATTGATGAAATTCATAGCACTGAATGATAAAACAGAATCTTCATTCGCAACTAAAATAGTGACCGCTATCATCATTAACTTTATTTATTACCGTCATTCACTTCTGAATGTCTGTTTACCCCTATTTCAACCGGATGCTTCGCATTCGGTTTTTTTTACCCTTTTTCAGACACACCCGGCTGATTTATGCTACCTGCCTAAAACTATCACGGTTATTCACTACACTCCCCTGCTCGACCGTTCGTAAGACATTAGCAAATAATTTCTTGATATTTAGTGCTAAACATTTATAAGTAGTCTTTATATTTGTACCGTTCTGCGAAGGTTGTACGCTTTTC (double strand) [ompC promoter S. Typhimurium],–,binds,binds more weakly,binds
